Source: US9072759B2 (priority 2008, dated 2015)

Legend:
Format in all cases: cell-based
[1] = system: H. influenzae 49247 Ery-S; experiment: microbe, parasite or virus in culture; conditions: for MIC: Haemophilus influenzae, 49247ERYS, read-out: MIC, H. influenzae 49247 Ery-S
[2] = system: S. pneumoniae 303 Ery-R (ermB); conditions: cladinose table b63
[3] = system: S. pneumoniae 163 Ery-R (MefA); conditions: cladinose table b63
S. aureus 25923 Ery-S = experiment: microbe, parasite or virus in culture; conditions: Staphylococcus aureus, 25923ERYS, read-out: MIC, S. aureus 25923 Ery-S

Row | SMILES | MIC, S. pneumoniae 303 Ery-R (ermB) [2] | MIC, S. pneumoniae 163 Ery-R (MefA) [3] | also measured
1 | CC[C@H]1OC(=O)[C@@](C)(F)C(=O)[C@H](C)[C@@H](OC2OC(C)CC(N(C)C)C2O)[C@@](C)(OC)C[C@@H](C)C(=O)[C@H](C)[C@H]2N(CCCCn3cc(-c4cccc(N)c4)nn3)C(=O)O[C@]12C (stereo partly shown) [CEM-101, 11-N-4-(3-aminophenyl)-[1,2,3]triazol-1-yl]-butyl}-5-desosaminyl-3-oxo-2-fluoro-erythronolide A,-11,12-cyclic carbamate] | – | – | MIC [1]: 2 µg/mL (≈ 2.37 µM)
2 | CC[C@H]1OC(=O)[C@H](C)[C@@H](OC2CC(C)(OC)C(O)C(C)O2)[C@H](C)[C@@H](OC2OC(C)CC(N(C)C)C2O)[C@@](C)(OC)C[C@@H](C)C(=O)[C@H](C)[C@H]2N(CCCCn3cc(-c4ccccn4)nn3)C(=O)O[C@]12C (stereo partly shown) [Entry 20a] | 2 µg/mL (≈ 2.06 µM) | – | –
3 | CC[C@H]1OC(=O)[C@H](C)[C@@H](OC2CC(C)(OC)C(O)C(C)O2)[C@H](C)[C@@H](OC2OC(C)CC(N(C)C)C2O)[C@@](C)(OC)C[C@@H](C)C(=O)[C@H](C)[C@H]2N(CCCCn3cc(-c4cccnc4)nn3)C(=O)O[C@]12C (stereo partly shown) [Entry 20b] | 1 µg/mL (≈ 1.03 µM) | ≦0.06 μg/mL | –
4 | CC[C@H]1OC(=O)[C@H](C)[C@@H](OC2CC(C)(OC)C(O)C(C)O2)[C@H](C)[C@@H](OC2OC(C)CC(N(C)C)C2O)[C@@](C)(OC)C[C@@H](C)C(=O)[C@H](C)[C@H]2N(CCCCn3cc(-c4cccc(N)c4)nn3)C(=O)O[C@]12C (stereo partly shown) [Entry 20c] | 2 µg/mL (≈ 2.03 µM) | 0.5 µg/mL (≈ 0.506 µM) | –
5 | CC[C@H]1OC(=O)[C@H](C)[C@@H](OC2CC(C)(OC)C(O)C(C)O2)[C@H](C)[C@@H](OC2OC(C)CC(N(C)C)C2O)[C@@](C)(OC)C[C@@H](C)C(=O)[C@H](C)[C@H]2N(CCCCn3cc(COc4c(Cl)cccc4Cl)nn3)C(=O)O[C@]12C (stereo partly shown) [Entry 20d] | 2 µg/mL (≈ 1.87 µM) | 0.5 µg/mL (≈ 0.467 µM) | –
6 | CC[C@H]1OC(=O)[C@H](C)[C@@H](OC2CC(C)(OC)C(O)C(C)O2)[C@H](C)[C@@H](OC2OC(C)CC(N(C)C)C2O)[C@@](C)(OC)C[C@@H](C)C(=O)[C@H](C)[C@H]2N(CCCCn3cc(Cn4nnc5ccccc54)nn3)C(=O)O[C@]12C (stereo partly shown) [Entry 20e] | 2 µg/mL (≈ 1.95 µM) | 0.5 µg/mL (≈ 0.487 µM) | –
7 | CC[C@H]1OC(=O)[C@@](C)(F)C(=O)[C@H](C)[C@@H](OC2OC(C)CC(N(C)C)C2O)[C@@](C)(OC)C[C@@H](C)C(=O)[C@H](C)[C@H]2N(CCCCn3cc(-c4ccccn4)nn3)C(=O)O[C@]12C (stereo partly shown) [Entry 23a] | – | – | MIC, H. influenzae 49247 Ery-S [1]: 2 µg/mL (≈ 2.41 µM)
8 | CC[C@H]1OC(=O)[C@H](C)C(=O)[C@H](C)[C@@H](O[C@@H]2O[C@H](C)C[C@H](N(C)C)[C@H]2O)[C@](C)(OC)C[C@@H](C)C(=O)[C@H](C)[C@H]2N(CCCCn3cnc(-c4cccnc4)c3)C(=O)O[C@]12C [TEL, Telithromycin] | – | – | MIC [1]: 4 µg/mL (≈ 4.93 µM); MIC (S. aureus 25923 Ery-S): ≤ 0.25 µg/mL

≈ marks a conversion by molar mass, not a printed value.
